# “Also recorded” adds a separate entry of the source.
# Test system: Calu3 cells
# Experiment: XTT cell cytotoxicity assay in uninfected Calu3 cells
# Assay type: cell-based, human
# Settings: 0.25 μM brusatol, 24 h
# Method: To measure cell viability to determine if there was any treatment-induced cytotoxicity, cells were plated and treated with drugs as described above. Cells were exposed to the same dilution series created for the in vitro efficacy studies. As above, vehicle-treated cells served as the 0% cytotoxicity control. After 24 h, cell viability was measured on a Synergy 2 Biotek microplate reader (Biotek Inc) via the XTT Cell Proliferation Assay Kit (ATCC® 30-1011K™) according to the manufacturer's protocol. Similar data were obtained in three independent experiments.
substance,measurement,value
brusatol,"cytotoxicity, XTT cell cytotoxicity assay",non-cytotoxic; also recorded: cytotoxic

# Source: patent US20220273678A1 (priority 2020, published 2022)
